Experimental findings from US20260138988A1, “Spiropyrrolidine Derived Antiviral Agents” (Enanta Pharmaceuticals, Inc., priority 2021, published 2026) are described below.

The assay has as its target SARS-CoV-2 3CL-protease (Severe acute respiratory syndrome coronavirus 2, UniProt P0DTD1). In words: SARS-CoV-2 3C-Like (3CL) Protease Fluorescence Assay (FRET). The settings on record: SARS-CoV-2 3CL-protease 10 nM, test compounds 0-10 μM, duplicate. On the procedure:
SARS-CoV-2 3C-Like (3CL) Protease Fluorescence Assay (FRET):
Recombinant SARS-CoV-2 3CL-protease was expressed and purified. TAMRA-SITSAVLQSGFRKMK-Dabcyl-OH peptide 3CLpro substrate was synthesized. Black, low volume, round-bottom, 384 well microplates were used. In a typical assay, 0.85 μL of test compound was dissolved in DMSO then incubated with SARS-CoV-2 3CL-protease (10 nM) in 10 μL assay buffer (50 mM HEPES [pH 7.5], 1 mM DTT, 0.01% BSA, 0.01% Triton-X 100) for 30 min at RT. Next, 10 μL of 3CL-protease substrate (40 μM) in assay buffer was added and the assays were monitored continuously for 1 h in an Envision multimode plate reader operating in fluorescence kinetics mode with excitation at 540 nm and emission at 580 nm at RT. No compound (DMSO only) and no enzyme controls were routinely included in each plate. All experiments were run in duplicate.
Data Analysis: SARS-CoV-2 3CL-protease enzyme activity was measured as initial velocity of the linear phase (RFU/s) and normalized to controlled samples DMSO (100% activity) and no enzyme (0% activity) to determine percent residual activity at various concentrations of test compounds (0-10 μM). Data were fitted to normalized activity (variable slope) versus concentration fit in GraphPad Prism 7 to determine IC50. All experiments were run in duplicate, and IC50 ranges are reported as follows: A<0.1 μM; B 0.1-1 μM; C>1 μM.

`C[C@@H]1NC(=O)CCCCc2ccc3c(c2)[C@@]2(C[C@@H](C#N)N(C2)C(=O)[C@H](CC(C)(C)C)NC1=O)C(=O)N3` registered an IC50 of 0.1 to 1 µM.
